Measured values from several laboratories, pooled; numbers as filed in NIAID ChemDB.

Common to all: host cell toxicity; read-out: CC50

Two numbers with a dash give a range or band.

compound | cell line | read by | value
O=C(NCCc1ccc2c(n1)NCCC2)Nc1cccnc1Oc1ccccc1 | PBMC |  | 50 µM
CCOC(=O)C1=C(CN2CC(F)(F)[C@H]3[C@@H]2CCN3CC(F)(F)C(C)(C)C(=O)O)NC(c2nccs2)=N[C@H]1c1cccc(F)c1C | HepG2.2.15 | WST / absorbance | 13.2 µM
CCOC(=O)CC(=O)NCC(OCC)(OCC)c1ccc2c(c1)OCO2 | RAJI |  | <7.5 µM
O=C(NCc1ccc(Cl)cc1)c1c[nH]c2ccc(C#CCO)cc2c1=O | 10T1/2 |  | 62 µM
Nc1nc2c(ncn2CCC(CO)CO)c(=O)[nH]1 | BCBL-1 | cell count | 138 µM
NC(=O)c1[nH]c2c(c1N)C1=C(CCC/C1=C\c1ccncc1)C(c1ccncc1)S2 | MGC-803 | MTT | >50 µM
CN1CCN(c2ccnc3nc(CN(C)Cc4ncccc4-c4ccccc4)[nH]c23)CC1 | C8166 | MTT | >10 µM
O=c1[nH]c(=O)n([C@H]2C[C@H](O)[C@@H](CO)O2)cc1-c1ccc(Br)s1 | P3HR-1 | cell count | 262 µM
CCO/C(C)=N\C1=C(C#N)C2=C(CCC/C2=C\c2ccncc2)C(c2ccncc2)S1 | MGC-803 | MTT | 48.6 µM
CC(C)N([C@H](CO)CCCC(C)(C)NC(=O)[C@@H](N)Cc1ccccc1Cl)S(=O)(=O)c1ccc(N)cc1 | T lymphoid cells | microscopy | >10 µM
O=C(Nc1ccc(OCc2ccccn2)cc1)Nc1ncnc2c1cnn2-c1ccccc1Cl | HUH 9B |  | 29 µM
COC(=O)N[C@H](C(=O)N[C@H](C)CCC[C@@H](CO)N(CCC(C)C)S(=O)(=O)c1ccc(CO)cc1)C(c1ccccc1)c1ccccc1 | T lymphoid cells | microscopy | >10 µM
CCOC(=O)C1=C(CN2CC(F)(F)[C@H]3[C@@H]2CCN3CC[C@](C)(O)C(=O)O)NC(c2nccs2)=N[C@H]1c1ccc(F)c(F)c1F | HepG2.2.15 | WST / absorbance | 100 µM
CCNC(=S)N=Nc1c(O)[nH]c2ccccc12 | hRD |  | >25 µM
CC[C@@H](CCC[C@@H](CO)N(CCC(C)C)S(=O)(=O)c1ccc(N)cc1)NC(=O)[C@@H](NC(=O)OCc1ccncc1)C(c1ccccc1)c1ccccc1 | T lymphoid cells | microscopy | >10 µM
Oc1c(N=NC(=S)Nc2ccccc2)c2ccccc2n1-c1ccccc1 | hRD |  | >25 µM
Nc1nc2c(ncn2COC(CO)CO)c(=O)[nH]1 | RF | cell count | >900 µM
O=S(=O)(NCCc1ccc2c(n1)NCCC2)c1ccccc1OC(F)(F)F | PBMC |  | 50 µM
CN1CCN(c2ccnc3nc(CN(CCCCN)Cc4nccn4C)[nH]c23)CC1 | C8166 | MTT | >10 µM
COc1cc(NC(=O)NCC2CCc3ccccc3N2)cc(OC)c1 | PBMC |  | 50 µM
CCOC(=O)C1=C(CN2CC(F)(F)[C@@H]3[C@H]2CON3C[C@@H](F)C(C)(C)C(=O)O)NC(c2nccs2)=N[C@H]1c1cccc(F)c1C | HepG2.2.15 | WST / absorbance | 50 µM
COc1ccc(S(=O)(=O)NCCc2ccc3c(n2)NCCC3)cc1 | PBMC |  | 50 µM
CC(C)N(Cc1cccc(OCCCCCC(=O)OC(=O)O)c1)C(=O)c1ccc(-c2ccsc2)cc1 | HEK 293 |  | >20 µM
O=C(NCCc1ccc2c(n1)NCCC2)NCCc1ccccc1F | PBMC |  | 50 µM
CCOC(=O)c1[nH]c2c(c1N)C1=C(CCC/C1=C\c1ccncc1)C(c1ccncc1)S2 | CNE-2 | MTT | >50 µM
CCCN(Cc1ccccc1OCC(=O)O)C(=O)c1ccc(-c2ccc3c(c2)OCO3)cc1 | HEK 293 |  | >20 µM
CCN(CC)C(=O)N1CCN(c2ncnc(N3CC[N+]4(CC3)CC[N+]3(CCN(c5ncnc(N6CCN(C(=O)N(CC)CC)CC6)c5[N+](=O)[O-])CC3)CC4)c2[N+](=O)[O-])CC1 | K562 |  | >203.7 µg/mL
CCOC(=O)C1=C(CN2CC(F)(F)[C@@H]3[C@H]2CON3C[C@@H](OC)C(C)(C)C(=O)O)NC(c2nccs2)=N[C@H]1c1ccc(F)cc1Cl | HepG2.2.15 | WST / absorbance | 72.8 µM
CN(Cc1nc2ccccc2[nH]1)Cc1ncccc1CCC#N | C8166 | MTT | >10 µM
Cc1ccc(-n2ncc3c(CNc4ccc(Cl)c(Cl)c4)ncnc32)c(C)c1 | HUH 9B |  | 34 µM
CC[C@@H](CCC[C@@H](CO)N(CC(C)C)S(=O)(=O)c1ccc(CO)cc1)NC(=O)[C@@H](NC)C(c1ccccc1)c1ccccc1 | T lymphoid cells | microscopy | >10 µM
CCOC(=O)CCCCCOc1cccc(CN(C(=O)c2ccc(Br)cc2)C(C)C)c1 | RAJI |  | >20 µM
CN1CCN(c2ccnc3nc(CN(CCCCN)Cc4c(N)cccc4Cl)[nH]c23)CC1 | C8166 | MTT | >10 µM
COC(=O)N[C@H](C(=O)NC(C)(C)CCC[C@@H](CO)N(CCC(C)C)S(=O)(=O)c1ccc(N)cc1)C(c1ccccc1)c1ccccc1 | T lymphoid cells | microscopy | >10 µM
CCO/C=N\C1=C(C#N)C2=C(CCC/C2=C\c2ccncc2)C(c2ccncc2)S1 | MGC-803 | MTT | >50 µM
C[C@H]1[C@H](O)[C@@H](C)/C=C/C=C/C=C/C=C/C=C/C=C/C=C/[C@H](O[C@@H]2O[C@H](C)[C@@H](O)[C@H](N)[C@@H]2O)C[C@@H]2O[C@](O)(C[C@@H](O)C[C@@H](O)CC[C@H](O)[C@@H](O)C[C@@H](O)CC(=O)O[C@H]1C)C[C@H](O)[C@H]2C(=O)O | CEMx174 | MTT | >10 µM
Clc1ccccc1-n1ncc2c(NCCc3c[nH]c4ccccc34)ncnc21 | HUH 9B |  | 20 µM
CN(Cc1nc2ccccc2[nH]1)Cc1ncccc1CCCN | C8166 | MTT | >10 µM
Cc1ccc(-n2ncc3c(Nc4ccc(C#N)c(Cl)c4)ncnc32)c(C)c1 | HUH 9B |  | 18 µM
C1C[N+]2(CCN1)CC[N+]1(CCNCC1)CC2 | L929 |  | >672.7 µg/mL
CC(C)N(Cc1cccc(OCCCCCC(=O)OC(=O)O)c1)C(=O)c1ccc(-c2cccc(S(C)(=O)=O)c2)cc1 | RAJI |  | >20 µM
Nc1c2c(nc(=O)n1-c1ccccc1)SC(c1ccncc1)C1=C2/C(=C/c2ccncc2)CCC1 | MCF-7 | MTT | 14.8 µM
O=c1[nH]c(=O)n([C@H]2C[C@H](O)[C@@H](CO)O2)cc1/C=C/Br | OMK | cell count | >900 µM
Cc1ccc(-n2ncc3c(NC(=O)Nc4ccc(C(F)(F)F)cc4)ncnc32)c(C)c1 | HUH 9B |  | >50 µM
CN1CCN(c2ccnc3nc(CN(CCCCN)Cc4c(Cl)cccc4[N+](=O)[O-])[nH]c23)CC1 | C8166 | MTT | >10 µM
O=[N+]([O-])c1c(N2CC[N+]3(CC2)CC[N+]2(CCNCC2)CC3)ncnc1N1CC[N+]2(CC1)CC[N+]1(CCN(c3ncnc(N4CC[N+]5(CC4)CC[N+]4(CCNCC4)CC5)c3[N+](=O)[O-])CC1)CC2 | GMK |  | >365.2 µg/mL
C[C@@H]1C[C@@H](O)c2c(O[C@H]3O[C@H](CO)[C@@H](O)[C@H]3O)cccc2O1 | MCF-7 | MTT | >40 µg/mL
Nc1nc2c(ncn2COC(CO)CO)c(=O)[nH]1 | CFU-GM |  | 15 µM
O=C(NCCc1ccc2c(n1)NCCC2)NCCc1cccs1 | PBMC |  | 50 µM
O=C1NNC(=O)c2c(ncn2[C@@H]2O[C@H](CO)[C@@H](O)[C@H]2O)N1 | Daudi dividing cells |  | >50 µM
COC(=O)N[C@H](C(=O)N[C@@H](C)CCC[C@@H](CO)N(CCC(C)C)S(=O)(=O)c1ccc(N)c(F)c1)C(c1ccccc1)c1ccccc1 | T lymphoid cells | microscopy | >10 µM
CCOC(=O)CNC1=C(C#N)C2=C(CCC/C2=C\c2ccncc2)C(c2ccncc2)S1 | KB | MTT | 48.5 µM
Cc1cc2c(O[C@H]3O[C@H](CO)[C@@H](O)[C@H]3O)ccc(O)c2c(=O)o1 | SMMC-7721 | MTT | >40 µg/mL
C[C@@H](NC(=O)NCCc1ccc2c(n1)NCCC2)c1ccc2ccccc2c1 | PBMC |  | 50 µM
CCN(CC)C(=S)Sc1ncnc(N2CC[N+]3(CC2)CC[N+]2(CCN(c4ncnc(SC(=S)N(CC)CC)c4[N+](=O)[O-])CC2)CC3)c1[N+](=O)[O-] | L929 |  | >224.2 µg/mL
CCOC(=O)C1=C(CN2CC(F)(F)[C@H]3[C@@H]2CCN3CC[C@@](C)(O)C(=O)O)NC(c2nccs2)=N[C@H]1c1cccc(F)c1C | HepG2.2.15 | WST / absorbance | >50 µM
Cc1ccc(NC(=S)N=Nc2c(O)[nH]c3ccccc23)cc1 | hRD |  | >25 µM
CCOC(=O)CCCCCOc1cccc(CN(C(=O)c2ccc(-c3cccc(F)c3)cc2)C(C)C)c1 | BJ |  | >20 µM
Cc1nc2c(c(=N)n1Nc1ccccc1)C1=C(CCC/C1=C\c1ccncc1)C(c1ccncc1)S2 | MCF-7 | MTT | 12.4 µM
COC(=O)C1=C(CN2CC(F)(F)[C@H]3[C@@H]2CCN3C[C@@H](F)C(C)(C)C(=O)O)NC(c2nc(C)cs2)=N[C@H]1c1cccc(F)c1Cl | HepG2.2.15 | WST / absorbance | 30 µM
FC(F)(F)c1ccccc1-n1ncc2c(NCCc3c[nH]c4ccccc34)ncnc21 | HUH 9B |  | 32 µM
Oc1[nH]c2ccccc2c1N=NC(=S)Nc1ccc(Cl)cc1 | hRD |  | >25 µM
N#Cc1cccc(-c2cccc(NC(=O)NCCc3ccc4c(n3)NCCC4)n2)c1 | PBMC |  | 13 µM
Nc1nc2c(sc(=O)n2C/C=C\CO)c(=O)[nH]1 | BFU-E |  | 13 µM
CCN([C@H](CO)CCC[C@@H](NC(=O)[C@@H](NC(=O)OC)C(c1ccccc1)c1ccccc1)C1CC1)S(=O)(=O)c1ccc(N)cc1 | T lymphoid cells | microscopy | >10 µM
Clc1ccc(-n2ncc3c(NCCc4c[nH]c5ccccc45)ncnc32)c(Cl)c1 | HUH 9B |  | 11 µM
CC(C)Nc1nc2cc(Cl)c(Cl)cc2n1[C@H]1O[C@@H](CO)[C@H](O)[C@@H]1O | IM9 |  | 35–72 µM
O=c1sc2nc3c(c(=S)n2/c1=C/c1ccccc1)C1=C(CCC/C1=C\c1ccncc1)C(c1ccncc1)S3 | MGC-803 | MTT | 40.6 µM
CCC(=O)c1ccc(NC(=O)NCCc2ccc3c(n2)NCCC3)cc1 | PBMC |  | 31 µM
O=c1[nH]c(=O)n([C@@H]2O[C@H](CO)[C@@H](O)[C@@H]2O)cc1/C=C/Br | RF | cell count | 670 µM

The first 5 rows once more:

{"compound": "O=C(NCCc1ccc2c(n1)NCCC2)Nc1cccnc1Oc1ccccc1", "cell line": "PBMC", "value": "50 µM"}
{"compound": "CCOC(=O)C1=C(CN2CC(F)(F)[C@H]3[C@@H]2CCN3CC(F)(F)C(C)(C)C(=O)O)NC(c2nccs2)=N[C@H]1c1cccc(F)c1C", "cell line": "HepG2.2.15", "read by": "WST / absorbance", "value": "13.2 µM"}
{"compound": "CCOC(=O)CC(=O)NCC(OCC)(OCC)c1ccc2c(c1)OCO2", "cell line": "RAJI", "value": "<7.5 µM"}
{"compound": "O=C(NCc1ccc(Cl)cc1)c1c[nH]c2ccc(C#CCO)cc2c1=O", "cell line": "10T1/2", "value": "62 µM"}
{"compound": "Nc1nc2c(ncn2CCC(CO)CO)c(=O)[nH]1", "cell line": "BCBL-1", "read by": "cell count", "value": "138 µM"}

Blank or dashed fields: not listed here. Lines come from different laboratories, so protocols vary. CCn is the concentration with n% toxicity to the cells.